The structures appear in SMILES notation.

Sequences of proteins named here, by UniProt entry; tags and fusion partners are left off.
UniProt P08546, whole entry: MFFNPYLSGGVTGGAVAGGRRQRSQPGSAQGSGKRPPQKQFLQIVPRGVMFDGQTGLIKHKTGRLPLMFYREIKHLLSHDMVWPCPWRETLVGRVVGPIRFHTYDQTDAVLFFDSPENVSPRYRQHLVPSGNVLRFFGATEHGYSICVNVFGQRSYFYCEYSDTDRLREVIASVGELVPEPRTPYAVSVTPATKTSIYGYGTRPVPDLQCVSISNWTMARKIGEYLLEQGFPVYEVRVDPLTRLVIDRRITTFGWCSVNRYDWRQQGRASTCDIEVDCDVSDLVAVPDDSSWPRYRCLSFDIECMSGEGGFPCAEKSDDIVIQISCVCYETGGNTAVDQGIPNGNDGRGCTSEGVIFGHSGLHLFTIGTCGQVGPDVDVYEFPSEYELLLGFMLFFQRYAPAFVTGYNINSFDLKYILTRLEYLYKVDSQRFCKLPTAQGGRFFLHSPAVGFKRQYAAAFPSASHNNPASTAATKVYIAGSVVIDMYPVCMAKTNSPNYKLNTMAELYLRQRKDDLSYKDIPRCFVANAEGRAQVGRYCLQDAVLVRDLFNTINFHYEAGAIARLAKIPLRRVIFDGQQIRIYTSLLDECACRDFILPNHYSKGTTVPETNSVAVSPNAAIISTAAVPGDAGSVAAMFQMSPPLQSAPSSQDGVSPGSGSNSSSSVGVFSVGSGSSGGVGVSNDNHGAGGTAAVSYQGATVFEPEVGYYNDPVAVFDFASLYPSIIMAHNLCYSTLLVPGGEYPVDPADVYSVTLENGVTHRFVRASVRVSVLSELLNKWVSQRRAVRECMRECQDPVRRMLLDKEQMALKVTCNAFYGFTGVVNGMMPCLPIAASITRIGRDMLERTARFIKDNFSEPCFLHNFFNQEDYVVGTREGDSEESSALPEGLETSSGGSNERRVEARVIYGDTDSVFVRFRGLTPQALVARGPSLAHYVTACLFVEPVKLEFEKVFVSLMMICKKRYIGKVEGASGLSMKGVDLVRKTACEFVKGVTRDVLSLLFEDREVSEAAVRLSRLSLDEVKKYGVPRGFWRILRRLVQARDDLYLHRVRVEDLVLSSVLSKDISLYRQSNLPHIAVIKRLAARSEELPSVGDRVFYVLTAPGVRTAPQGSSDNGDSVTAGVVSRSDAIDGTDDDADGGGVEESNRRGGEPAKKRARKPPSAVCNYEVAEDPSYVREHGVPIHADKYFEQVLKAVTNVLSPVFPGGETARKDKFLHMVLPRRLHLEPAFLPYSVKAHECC

The test system of assay [1] is HSV-1 Strain F. The experiment in a line: Viral qPCR assay, HSV-1. The format is cell-based, Herpes Simplex Virus type 1. The note with it: read-out: HSV1 Cell (EC50); Vero or MRC5 cells; 0.0005-0.004 pfu/cell; ~72 hrs; growth medium; viral genome copies by qPCR. As to the method: (§1) MRC5 cells, Vero cells, and MeWo cells were obtained from ATCC, and were maintained at 37° C./5% CO2/90% relative humidity in Minimal Essential Medium with 10% fetal bovine serum, […] L-glutamine, 100 units/ml penicillin and 100 ug/ml streptomycin. Assay plates were prepared by dispensing compounds dissolved in DMSO into wells of 384 well collagen-coated plates using an ECHO acoustic dispenser. Each compound was tested in a 10-point, serial 3-fold dilution. Controls included uninfected cells and infected cells treated only with DMSO. Assays were initiated by mixing selected cells, in suspension, with virus, and dispensing 50 μl/well infected cells to pre-plated compounds. […] Levels of a viral gene and of the cellular control, PPIA (Thermo Fisher Assay ID=Hs04194521_s1), were measured in separate 10 ul qPCR assays using TaqMan® Gene Expression Master Mix (Applied Biosystems), and an 7900HT Fast Real-Time PCR System with 384-Well Block Module. 7-point, serial 10-fold dilutions of a plasmid standard were run on each plate to generate a standard curve, and genome copies numbers were calculated by plotting experimental Ct onto linear regression of the standard curve. […] Calculated % effects were fit using a 4-parameter algorithm, and EC50 was reported. […]
(Real-time PCR tracks product formation cycle by cycle.)

Assay [2] deals with Human cytomegalovirus DNA polymerase (Human cytomegalovirus, UniProt P08546). Description: CMV polymerase assay (AlphaLISA). The format is biochemical. The settings on record: read-out: CMV (IC50); HCMV polymerase 0.2 nM; 30 min pre-incubation; 60 min at 37° C. On the procedure: Human cytomegalovirus and varicella zoster virus DNA polymerases were expressed via baculovirus vector in SF21 cells and purified. Heterodimeric nucleic acid substrate used in the herpesvirus polymerase reactions was generated by annealing a 59-mer template to a 17-mer digoxigenin-labeled primer. Polymerase (HCMV final concentration of 0.2 nM; VZV final concentration of 0.4 nM) was combined with an inhibitor compound or DMSO in assay buffer (10 mM HEPES, pH 7.5, 25 mM KCl, 25 mM NaCl, 5 mM MgCl2, 5% glycerol, 0.67 mg/ml bovine serum albumin, and 1 mM tris(2-carboxyethyl)phosphine), and this mixture was pre-incubated for 30 minutes at room temperature in 384-well microtiter plates. The polymerization reaction was initiated by the addition of template/primer substrate (final concentration: 1.6 nM), and dNTPs (final concentration: 24 nM dCTP, 24 nMdGTP, 16 nM dATP, 16 nM dTTP, and 0.8 nM biotin-dUTP). After 60 min incubation at 37° C., reactions were terminated with quench buffer (25 mM HEPES pH 7.5, 100 mM NaCl, 0.25% Tween-20, 12 mM EDTA, and 1 mg/ml bovine serum albumin). Incorporation of biotinylated UTP was detected with 2.5-5 ug/ml anti-DIG AlphaLISA acceptor beads and 5-10 ug/ml streptavidin AlphaLISA donor beads (PerkinElmer). […]
In general terms: Bead proximity is the source of the signal in Alpha formats.

Assay [3] deals with HCMV Strain AD169. The experiment in a line: Viral qPCR assay, HCMV. It counts as cell-based, Human cytomegalovirus. The note with it: read-out: CMV Cell (EC50); MRC-5 cells; 0.05-0.1 pfu/cell; ~72 hrs; growth media or 50% fetal bovine serum; viral genome copies by qPCR. As to the method:
as §1

In assay [4] the test system is VZV. Description: Viral qPCR assay, VZV. The format is cell-based, varicella zoster virus. The settings on record: read-out: VZV Cell (EC50); MeWo or MRC5 cells; 0.04-0.1 pfu/cell; ~72 hrs; growth medium; viral genome copies by qPCR. On the procedure: as §1

For `COc1nc(C2CC(O)C2)c(O[C@H]2CCN3C(=O)OC[C@@H]3C2)cc1C(=O)NCc1ccc(Cl)cc1` (single isomer, unassigned) [Compound 74], the EC50 (usually the concentration that produces a half-maximal response) in assay [1] turned out to be 420 nM; in assay [3], 380 nM; in assay [4], 657 nM. Further, the IC50 (in general, the concentration needed to halve the response being measured) in assay [2] came to 18 nM.

The values are drawn from patent US20240083910A1, “AMIDO-SUBSTITUTED PYRIDYL COMPOUNDS AND METHODS OF USE THEREOF FOR THE TREATMENT OF HERPESVIRUSES” (Merck Sharp & Dohme LLC, priority 2020, published 2024).
